A mixed list of measured activities; the numbers were collected in NIAID ChemDB.

Shared fields: toxicity to cultured cells; cell line: MDBK; read-out: CC50

CCn: concentration that lowers growth or viability of the cells by n%. Neighbouring rows are from separate reports. Blank or dashed fields: not listed here.

CC(=O)O[C@@H]1C[C@@H](CO)O[C@H]1n1cc(C#CI)c(=O)[nH]c1=O ; method: neutral red ; result: >100 µM
Cc1cccc(-c2nc3ccn(Cc4ccc(Br)cc4)cc-3n2)c1 ; result: 35 µg/mL
Cc1ccc(N2C(=O)C(C)S/C2=N/N=C2\C(=O)Nc3ccc([N+](=O)[O-])cc32)cc1 ; result: 41 µg/mL
CC(=O)O[C@H]1C[C@H](n2cc(C#CI)c(=O)[nH]c2=O)O[C@@H]1CO ; method: neutral red ; result: >100 µM
Brc1ccc(Cn2ccc3nc(-c4ccccc4)nc-3c2)cc1 ; result: 28 µg/mL
CC(=O)O[C@H]1C[C@H](n2cc(/C(I)=C\I)c(=O)[nH]c2=O)O[C@@H]1CO ; method: neutral red ; result: >100 µM
CC1S/C(=N/N=C2\C(=O)Nc3ccc([N+](=O)[O-])cc32)N(c2ccc(Cl)cc2)C1=O ; result: >50 µg/mL
Fc1ccccc1Cn1ccc2nc(-c3ccccc3)nc-2c1 ; result: 29 µg/mL
O=[N+]([O-])c1ccc2[nH]c(O)c(N=NC(=S)NC3CCCCC3)c2c1 ; result: 5 µg/mL
Cc1ccc(C(C)C)c(O)c1 ; method: MTT ; result: 1400 µg/mL
COc1ccc(Cn2ccc3nc(-c4ccccc4)nc-3c2)cc1 ; result: 36 µg/mL
O=[N+]([O-])c1ccc2c(c1)c(N=NC(=S)Nc1ccccc1)c(O)n2CN1CCCCC1 ; result: 20 µg/mL
c1ccc(CCCn2ccc3nc(-c4ccccc4)nc-3c2)cc1 ; result: 56 µg/mL
CCCCN1C(=O)C(C)S/C1=N/N=C1\C(=O)Nc2ccc([N+](=O)[O-])cc21 ; result: >50 µg/mL
Brc1ccc(Cn2ccc3nc(-c4cccc(I)c4)nc-3c2)cc1 ; result: 4.3 µg/mL
CCCC(C)NC(=O)[C@@H]1[C@H](O)[C@@H](O)CN1C(=O)c1cccc(N(C)C)c1 ; method: visual reading ; result: >300 µM
CC(=O)O[C@@H]1[C@H](OC(C)=O)[C@@H](CO)O[C@H]1n1cc(/C(I)=C\I)c(=O)[nH]c1=O ; method: neutral red ; result: >100 µM
O=C1Nc2ccc([N+](=O)[O-])cc2/C1=N/N=C1/SCC(=O)N1c1ccc(Cl)cc1 ; result: 2 µg/mL

A second listing of 2 rows from above:

| smiles | method | result |
|---|---|---|
| CCCC(C)NC(=O)[C@@H]1[C@H](O)[C@@H](O)CN1C(=O)c1cccc(N(C)C)c1 | visual reading | >300 µM |
| O=[N+]([O-])c1ccc2[nH]c(O)c(N=NC(=S)NC3CCCCC3)c2c1 |  | 5 µg/mL |